Legend:
Assay in all cases: cell-based or functional assay
[1] = biological target: SARS-CoV-2 spike protein, Omicron sublineage BA.4/5 (SARS-CoV-2), P0DTC2
[2] = biological target: SARS-CoV-2 spike protein, Omicron sublineage BF.7 (SARS-CoV-2), P0DTC2
[3] = biological target: SARS-CoV-2 spike protein, Omicron sublineage BQ.1.1 (SARS-CoV-2), P0DTC2

Binder	IC50 (pseudovirus neutralization) [1]	IC80 (pseudovirus neutralization) [1]	IC50 (pseudovirus neutralization) [2]	IC80 (pseudovirus neutralization) [2]	IC50 (pseudovirus neutralization) [3]	IC80 (pseudovirus neutralization) [3]
A23-58H/A23-58L93VGLTG (antibody, V domains shown) VH: QMQLVQSGPEVKKPGTSVKVSCKASGFTFTSSAVQWVRQRQRLEWIGWIVVGSGNTNYAQKFQERVTITRDMSTSTAYMELSSLRSEDTAVYYCAAPNCSNVVCYDGFDIWGQGTMVTVSS VL: EIVLTQSPGTLSLSPGERATLSCRASQSVSSSYLAWYQQKPGQAPRLLIYSASSRATGIPDRFSGSGSGTDFTLTISRLEPEDFAVYFCQQYVGLTGWTFGQGTKVEIK	5.2 nM	13.5 nM	97.5 nM	475 nM	30.3 nM	1320 nM
E8 (antibody, V domains shown) VH: QVTLRESGPALVKPTQTLTLTCTFSGFSLSTRGVCVSWIRQPPGKALEWLAFIDWDDDKYYNTSLKTRLTISKDTSKNQVVLTMTNVHPVDTATYYCARISSHHGSSWCTTFDYWGQGALVTVSA VL: DTVMTQSPLSLPVTPGEPASISCRSSQSLLNSNGYNYLDWYVQKPGQSPQLLIYLGSNRASGVPDRFSGSGSGTDFTLKISRVEAEDVGVYYCMQPLQTPLFTFGPGTKVEIK	0.13 nM	0.49 nM	15.6 nM	30.9 nM	496 nM	1800 nM
MX1089 (protein) chain 1: QTVVTQEPSFSVSPGGTVTLTCGLSSGSVSTAYFPSWYQQTPGQAPRTLIYGTNTRSSGVPDRFSGSILGNKAALTITGAQADDESDYYCVLYMGRGIVVFGGGTKLTVLGGSSGEIVMTQSPAILSVSPGERATLSCRASQSVAINLAWYQQKPGQAPRLLIYAASSRATGIPGRFSGSGSETNFTLTISSLQSGDFAVYYCQQYITWPPSYTFGQGTKLEIKGGGGSGGSGSGGGGSASGSGEVQLVESGGALIQPGGSLRLSCAASGIIVSANYMSWVRQAPGKGLEWVSVIYSGGSTFYADSVKGRFTISRDNSKNTLYLEMNSLRAEDTAVYYCARDAPILGVSDWGQGTLVTVSSGGSSGQVQLVESGGGVVQPGRSLRLSCAASGFTLSSYGMHWVRQAPGKGLEWVAVISYDGSNKYYVDSVKGRFTISRDNSKNTLYLQMNSLRAEDTAVYYCRWAYWELLPDYYYGMDVWGQGTTVTVSSASGGSGDKTHTCPPCPAPELLGGPSVFLFPPKPKDTLMISRTPEVTCVVVDVSHEDPEVKFNWYVDGVEVHNAKTKPREEQYNSYVVSVLTVLHQDWLNGKEYKCKVSNKALPAPIEKTISKAKGQPREPQVYTLPPCRDELTKNQVSLWCLVKGFYPSDIAVEWESNGQPENNYKTTPPVLDSDGSFFKKLTVDKSRWQQGNVFSCSVLHEALHSHYTQKSLSLSPG chain 2: DTVMTQSPLSLPVTPGEPASISCRSSQSLLNSNGYNYLDWYVQKPGQSPQLLIYLGSNRASGVPDRFSGSGSGTDFTLKISRVEAEDVGVYYCMQPLQTPLFTFGPGTKVEIKGGSSGEIVLTQSPGTLSLSPGERATLSCRASQSVSSSYLAWYQQKPGQAPRLLIYSASSRATGIPDRFSGSGSGTDFTLTISRLEPEDFAVYFCQQYVGLTGWTFGQGTKVEIKGGGGSGGSGSGGGGSASGSGQMQLVQSGPEVKKPGTSVKVSCKASGFTFTSSAVQWVRQRQRLEWIGWIVVGSGNTNYAQKFQERVTITRDMSTSTAYMELSSLRSEDTAVYYCAAPNCSNVVCYDGFDIWGQGTMVTVSSGGSSGQVTLRESGPALVKPTQTLTLTCTFSGFSLSTRGVCVSWIRQPPGKALEWLAFIDWDDDKYYNTSLKTRLTISKDTSKNQVVLTMTNVHPVDTATYYCARISSHHGSSWCTTFDYWGQGALVTVSAASGGSGDKTHTCPPCPAPELLGGPSVFLFPPKPKDTLMISRTPEVTCVVVDVSHEDPEVKFNWYVDGVEVHNAKTKPREEQYNSYVVSVLTVLHQDWLNGKEYKCKVSNKALPAPIEKTISKAKGQPREPQVCTLPPSRDELTKNQVSLSCAVKGFYPSDIAVEWESNGQPENNYKTTPPVLDSDGSFFLVSKLTVDKSRWQQGNVFSCSVLHEALHSHYTQKSLSLSPG	2.32 nM	3.5 nM	22.6 nM	64.3 nM	1.99 nM	7.9 nM
B8 (antibody, V domains shown) VH: EVQLVESGGALIQPGGSLRLSCAASGIIVSANYMSWVRQAPGKGLEWVSVIYSGGSTFYADSVKGRFTISRDNSKNTLYLEMNSLRAEDTAVYYCARDAPILGVSDWGQGTLVTVSS VL: EIVMTQSPAILSVSPGERATLSCRASQSVAINLAWYQQKPGQAPRLLIYAASSRATGIPGRFSGSGSETNFTLTISSLQSGDFAVYYCQQYITWPPSYTFGQGTKLEIK	6.97 nM	14.8 nM	19.8 nM	63 nM	4.57 nM	21.7 nM
E12 (antibody, V domains shown) VH: EVQLVESGGGLIQPGGSLRLSCAASGVIVSYNYMNWVRQAPGKGLEWVSVIYSGGSTFYADSVRGRFTISRDNSKNTLYLQMNSLRAEDTAVYYCARDLGPAGAFDIWGLGTMVTVSS VL: EIVLTQSPGTLSLSPGETATLSCRASQSFSSDLAWYQQKPGQAPRLLIYGASSRATGIPDRFSGSGSGTDFTLTISRLEPADFAVYYCQQYGSSPPVTFGGGTKVEIK	4.62 nM	9.21 nM	28.3 nM	88.7 nM	5.29 nM	17.4 nM

Source: US20240109955A1
